Earlier results, collected in article PMC4410398, “Influence of Drug Resistance Mutations on the Activity of HIV-1 Subtypes A and B Integrases: a Comparative Study” (Acta Naturae, 2015).

Columns and labels:
[1] = system: HIV-1 subtype CRF02_A/G isolate carrying a G118R substitution in the IN gene; parameters: method as in PMID 24710029; conditions: HIV-1 subtype CRF02_A/G isolate carrying G118R in the IN gene; cited from earlier work
[2] = system: HIV-1 subtype B (clone pNL4-3) carrying G118R; parameters: method as in PMID 24710029; conditions: cited from earlier work

COc1cc2c(cc1Cc1cccc(Cl)c1F)c(=O)c(C(=O)O)cn2[C@H](CO)C(C)C [EVG, elvitegravir]
FC (resistance) [1]: > 100 | FC (resistance) [2]: 3.1
